Measured values from several laboratories, pooled; numbers as filed in NIAID ChemDB.

Shared fields: tests in culture; organism: HIV-1; read-out: EC50

ECn: concentration that inhibits the pathogen or its effect by n%. Blank or dashed fields: not listed here. Neighbouring rows are from separate reports.

| structure | strain or isolate | changes | cell line | read by | value |
|---|---|---|---|---|---|
| CC(C)=CCOc1cc(NC(=S)c2ccoc2C)ccc1Cl | IIIB |  | AA5 | cytopathic effect / XTT | 0.02 µM |
| CC(C)C1=C2[C@H]3CC[C@@H]4[C@@]5(C)CC[C@H](OC(=O)[C@H]6C[C@@H](C(=O)O)C6(C)C)C(C)(C)[C@@H]5CC[C@@]4(C)[C@]3(C)CC[C@@]2(CC(=O)NCC(C)(C)NC(=O)c2ccc3c(c2)OCO3)CC1=O | 92HT599 |  | MT-2 | p24 / ELISA | <1 µM |
| Cc1cc(C)cc(C(=O)c2cc(Cl)ccc2OCC(=O)Nc2ccc(S(N)(=O)=O)cc2C)c1 | HXB2 (RT-K103N G190A) Recombinant | RT-K103N G190A | HeLa + HELA CD4+ | β-galactosidase | <0.01 µM |
| CCCc1cc(=O)oc2c3c(c4c(c12)OC(C)(C)CC4)O[C@@H](C)[C@H](C)[C@@H]3O | TIBO R82150-resistant (RT A98G V108I) | RT-A98G V108I | CEM + CEM-SS | XTT | 5.1 µM |
| O=C(C(=O)N1CCN(C(=O)c2cccnc2)CC1)c1c[nH]c2cccc(F)c12 |  |  | HeLa + HELA CD4+/CCR5 | luciferase | <10 µM |
| CC(C)C1=C2[C@H]3CC[C@@H]4[C@@]5(C)CC[C@H](OC(=O)[C@H]6C[C@@H](C(=O)O)C6(C)C)C(C)(C)[C@@H]5CC[C@@]4(C)[C@]3(C)CC[C@@]2([C@@H](O)CNC(=O)c2ccccn2)CC1=O | 92HT599 |  | MT-2 | p24 / ELISA | <1 µM |
| C[C@H]1CO[C@@H]2Cn3cc(C(=O)NCc4ccc(F)cc4F)c(=O)c(O)c3C(=O)N12 | NL4-3 | Y143R | CBMC | RT activity | 0.00097 µM |
| Cc1cc(OCCCS(N)(=O)=O)ccc1NC(=O)COc1ccc(Cl)cc1C(=O)c1cc(F)cc(C(F)(F)F)c1 | HXB2 | RT-K103N V108I | HeLa + HELA CD4+ | β-galactosidase | <0.01 µM |
| CC(C)=CCOc1cc(NC(=S)c2ccoc2C)ccc1Cl | RF |  | CEM + CEM-SS | p24 | 0.02 µM |
| Cc1cc(S(N)(=O)=O)ccc1NC(=O)COc1ccc(Cl)cc1C(=O)c1cc(F)cc(C(F)(F)F)c1 | HXB2 | RT-Y188C | HeLa + HELA CD4+ | β-galactosidase | <0.01 µM |
| CC(=O)c1c(C)nc(-c2ccccc2)nc1NC(=O)c1ccccc1 | 52534-2 |  | HeLa | GFP / fluorescence | >50 µM |
| CC(C)C1=C2[C@H]3CC[C@@H]4[C@@]5(C)CC[C@H](OC(=O)[C@H]6C[C@@H](C(=O)O)C6(C)C)C(C)(C)[C@@H]5CC[C@@]4(C)[C@]3(C)CC[C@@]2(CC(=O)NC[C@H]2CCCCN2)CC1=O | 92HT599 |  | MT-2 | p24 / ELISA | <1 µM |
| CC(C)=CCOc1cc(NC(=S)c2ccsc2C)ccc1Cl | Oxathiin carboxanilide-resistant RT L100I | RT-L100I | CEM + CEM-SS | cytopathic effect / XTT | 0.3 µM |
| COC(=O)c1cccc2c(C(=O)C(=O)N3CCN(C(=O)c4ccccc4)C(CC(C)C)C3)c[nH]c12 |  |  | HeLa + HELA CD4+/CCR5 | luciferase | <10 µM |
| Cc1cc(C#N)cc(C(=O)c2cc(Cl)ccc2OCC(=O)Nc2ccc(S(N)(=O)=O)nc2C)c1 | HXB2 | RT-K103N P225H | HeLa + HELA CD4+ | β-galactosidase | <0.01 µM |
| C[C@@H]1CN(C(=O)c2ccccc2)CCN1C(=O)C(=O)c1c[nH]c2ccc(F)cc12 |  |  | HeLa + HELA CD4+/CCR5 | luciferase | <10 µM |
| CC(C)C1=C2[C@H]3CC[C@@H]4[C@@]5(C)CC[C@H](OC(=O)[C@H]6C[C@@H](C(=O)O)C6(C)C)C(C)(C)[C@@H]5CC[C@@]4(C)[C@]3(C)CC[C@@]2([C@@H](O)CNCc2ccc(Cl)cc2OC2CCNCC2)CC1=O | 92HT599 |  | MT-2 | p24 / ELISA | <1 µM |
| Cc1cc(S(N)(=O)=O)ccc1NC(=O)COc1ccc(Cl)cc1C(=O)c1cccc(C#N)n1 | HXB2 | RT-V106A Y181C | HeLa + HELA CD4+ | β-galactosidase | <0.01 µM |
| N#CC1=CC2Nc3ccccc3C2N(c2ccc([N+](=O)[O-])cc2)C1=O | AE-CMU06 |  | HeLa | GFP / fluorescence | 0.067 µM |
| CCOc1cccc2[nH]cc(C(=O)C(=O)N3CCN(C(=O)c4ccccc4)CC3)c12 |  |  | HeLa + HELA CD4+/CCR5 | luciferase | <10 µM |
| [2H]C(CCN)(CNC(=O)c1ccc(Cl)cc1)NC(=O)C[C@@]12CC[C@]3(C)[C@H](CC[C@@H]4[C@@]5(C)CC[C@H](OC(=O)[C@H]6C[C@@H](C(=O)O)C6(C)C)C(C)(C)[C@@H]5CC[C@]43C)C1=C(C(C)C)C(=O)C2 | 92HT599 |  | MT-2 | p24 / ELISA | <1 µM |
| O=C(C(=O)N1CCN(C(=O)c2ccc(-c3ccccn3)cc2S)CC1)c1c[nH]c2cccc(Cl)c12 |  |  | HeLa + HELA CD4+/CCR5 | luciferase | <10 µM |
| Cc1cc(S(N)(=O)=O)ccc1NC(=O)COc1ccc(Cl)cc1C(=O)c1cc(Cl)cc(C#N)c1 | HXB2 | RT-K103N P225H | HeLa + HELA CD4+ | β-galactosidase | <0.01 µM |
| COCCOc1cc(Cl)ccc1CNC[C@H](O)[C@@]12CC[C@]3(C)[C@H](CC[C@@H]4[C@@]5(C)CC[C@H](OC(=O)[C@H]6C[C@@H](C(=O)O)C6(C)C)C(C)(C)[C@@H]5CC[C@]43C)C1=C(C(C)C)C(=O)C2 | 92HT599 |  | MT-2 | p24 / ELISA | <1 µM |
| Cc1ccc(C)n1-c1ccc(C(=O)O)c(O)c1 | BCF02 R5 GROUP O |  | PBMC + MT-2 | p24 | 0.89 µM |
| Cc1ccc(F)c2c(C(=O)C(=O)N3CCN(C(=O)c4ccccn4)C[C@H]3C)c[nH]c12 |  |  | HeLa + HELA CD4+/CCR5 | luciferase | <10 µM |
| CCC(=O)c1ccc(F)c([C@@H]2C[C@@H]2NC(=O)Nc2ccc(C#N)cn2)c1O | LAI | NNRTI-resistant (RT K101P) | TZM-bl | β-galactosidase / luminescence | ≥0.0625 µM |
| CC(C)C1=C2[C@H]3CC[C@@H]4[C@@]5(C)CC[C@H](OC(=O)[C@@H]6C[C@H](C(=O)O)C6(C)C)C(C)(C)[C@@H]5CC[C@@]4(C)[C@]3(C)CC[C@@]2(CCNC(=O)c2ccc(Cl)cc2)CC1=O | 92HT599 |  | MT-2 | p24 / ELISA | <1 µM |
| O=C(C(=O)N1CCN(C(=O)c2ccccn2)CC1)c1c[nH]c2cccc(Cl)c12 |  |  | HeLa + HELA CD4+/CCR5 | luciferase | <10 µM |
| CC(C)C1=C2[C@H]3CC[C@@H]4[C@@]5(C)CC[C@H](OC(=O)[C@H]6C[C@@H](C(=O)O)C6(C)C)C(C)(C)[C@@H]5CC[C@@]4(C)[C@]3(C)CC[C@@]2([C@@H](O)CNC[C@@H]2CCCN2)CC1=O | 92HT599 |  | MT-2 | p24 / ELISA | <1 µM |
| Cc1cc2cn[nH]c2cc1NC(=O)COc1ccc(Cl)cc1C(=O)c1cccc(C#N)c1 | HXB2 | RT-P225H | HeLa + HELA CD4+ | β-galactosidase | <0.01 µM |
| [2H]C(NC(=O)c1ccc(Cl)cc1)C(=O)NC[C@H](O)[C@@]12CC[C@]3(C)[C@H](CC[C@@H]4[C@@]5(C)CC[C@H](OC(=O)[C@H]6C[C@@H](C(=O)O)C6(C)C)C(C)(C)[C@@H]5CC[C@]43C)C1=C(C(C)C)C(=O)C2 | 92HT599 |  | MT-2 | p24 / ELISA | <1 µM |
| O=C(C(=O)N1CCN(C(=O)c2ccccc2S)CC1)c1c[nH]c2cccc(F)c12 |  |  | HeLa + HELA CD4+/CCR5 | luciferase | <10 µM |

For reference, 4 entries again:

structure,strain or isolate,changes,cell line,read by,value
CC(C)C1=C2[C@H]3CC[C@@H]4[C@@]5(C)CC[C@H](OC(=O)[C@@H]6C[C@H](C(=O)O)C6(C)C)C(C)(C)[C@@H]5CC[C@@]4(C)[C@]3(C)CC[C@@]2(CCNC(=O)c2ccc(Cl)cc2)CC1=O,92HT599,,MT-2,p24 / ELISA,<1 µM
O=C(C(=O)N1CCN(C(=O)c2ccc(-c3ccccn3)cc2S)CC1)c1c[nH]c2cccc(Cl)c12,,,HeLa + HELA CD4+/CCR5,luciferase,<10 µM
CC(C)=CCOc1cc(NC(=S)c2ccoc2C)ccc1Cl,IIIB,,AA5,cytopathic effect / XTT,0.02 µM
Cc1cc(S(N)(=O)=O)ccc1NC(=O)COc1ccc(Cl)cc1C(=O)c1cc(Cl)cc(C#N)c1,HXB2,RT-K103N P225H,HeLa + HELA CD4+,β-galactosidase,<0.01 µM